Measurements taken from paper PMC6589724, “A geminivirus betasatellite encoded βC1 protein interacts with PsbP and subverts PsbP‐mediated antiviral defence in plants”.

How the values were obtained:
[1] = target: T1, MBP-PsbP (NbPsbP1, oxygen-evolving enhancer protein 2) (Nicotiana benthamiana) (UniProt A0A4D6IA34); experiment: EMSA; conditions: 2 mM ATP, 5 mM Mg2+, 20 mM Tris-HCl pH 8.0, 2 mM DTT, 5 mM MgCl2, 12% glycerol, 25 mM KCl, 10 nM probe, 15 min, room temperature, 3.7% native PAGE, recombinant protein, residues 1-265, protein details: N-terminal MBP (pMAL-c2X), single-stranded DNA
MBP = experiment: EMSA; conditions: 2 mM ATP, 5 mM Mg2+, 20 mM Tris-HCl pH 8.0, 2 mM DTT, 5 mM MgCl2, 12% glycerol, 25 mM KCl, 10 nM probe, 15 min, room temperature, 3.7% native PAGE, recombinant protein, label: 32P, single-stranded DNA
[2] = target: T1, MBP-PsbP (NbPsbP1, oxygen-evolving enhancer protein 2) (Nicotiana benthamiana); experiment: competition with a labelled probe; conditions: 100-fold excess (1 uM) vs ssDNA probe N4, 2 mM ATP, 20 mM Tris-HCl pH 8.0, 2 mM DTT, 5 mM MgCl2, 12% glycerol, 25 mM KCl, 10 nM probe, 15 min, room temperature, 3.7% native PAGE, recombinant protein, residues 1-265, protein details: N-terminal MBP (pMAL-c2X), single-stranded DNA

“CTAAAACTCGTCGGAACTCCGATTAAGGCACTTCCGGTCACCAATTTGCGACACGCGCGGCGGTGCGTACCCCTGGGAGGGTAGGGTACCACTACGCTACGCAGCAGCCTTAGCTA [ssDNA probe 1210-1325]”: binds ([1]; label: 32P); no binding (MBP).
“ACGCTACGCAGCAGCCTTAGCTAC [SCR probe (1303-1326)]”: binds ([1]; binding increases with ATP, label: 5'-32P).
“GTCGACTACAGATGAACGCGTATACACATC [βC1 probe]”: binds ([1]; label: 5'-32P).
“AGGCTGGATTTGCTGGAGATGATG [NbActin ssDNA competitor]”: binds [2].
ATTGGTGTCTGGAGTCCTAT [CR probe]: binds ([1]; label: 5'-32P).

Construct, isoform or probe ends are uncertain for at least one entry. For part of these data: Negatives hold for the conditions tested.
